Measured values from several laboratories, pooled; numbers as filed in NIAID ChemDB.

Shared fields: enzyme or target tests; agent: HIV-1; protein: Reverse transcriptase; endpoint: fold resistance

Two numbers with a dash give a range or band.

{"compound": "O=C(CSc1nnc(Br)n1-c1ccc(C2CC2)cc1OC(F)(F)F)Nc1ccc(S(=O)(=O)O)cc1Cl", "read by": "nucleotide incorporation / radiometric", "mutations": "RT-Y188L", "value": ">2"}
{"compound": "CCN1c2nc(C(F)(F)F)ccc2NC(=O)c2cc(CCOc3cc[n+]([O-])c4ccccc34)cnc21", "read by": "nucleotide incorporation / radiometric", "mutations": "RT-K103N Y181C", "value": "2.4"}
{"compound": "CCN1c2ncc(CCOc3ccc(-c4ccc[n+]([O-])c4)cc3C)cc2C(=O)N(C)c2cccnc21", "read by": "nucleotide incorporation / radiometric", "strain": "IIIB", "mutations": "RT-K103N Y181C", "value": "1"}
{"compound": "CCN1c2ncc(CCOc3ccc(CC(=O)O)c4c3CCCC4)cc2C(=O)N(C)c2cccnc21", "read by": "nucleotide incorporation / radiometric", "mutations": "RT-K103N Y181C", "value": "1–10"}
{"compound": "CCc1ccc(-n2c(Br)nnc2SCC(=O)Nc2ccc(C(=O)N3CCCCC3CO)cc2Cl)c2ccccc12", "read by": "nucleotide incorporation / radiometric", "mutations": "RT-Y188L", "value": ">2"}
{"compound": "CCc1cc(CCc2nc3ccccc3o2)c(=O)[nH]c1C", "read by": "nucleotide incorporation", "mutations": "RT-Y188C", "value": "31"}
{"compound": "CCN1c2ncc(CCOc3ccc(-c4cc(C(=O)O)on4)cc3)cc2C(=O)N(C)c2cccnc21", "read by": "nucleotide incorporation / radiometric", "strain": "IIIB", "mutations": "RT-K103N Y181C", "value": ">2"}
{"compound": "CCc1ccc(-n2c(SCC(=O)Nc3ccc(C(=O)O)cc3Cl)nnc2C(F)(F)F)c2ccccc12", "read by": "nucleotide incorporation / radiometric", "mutations": "RT-Y188L", "value": ">2"}
{"compound": "CCN1c2ncc(CCOc3ccc(NS(C)(=O)=O)c4ccccc34)cc2C(=O)N(C)c2ccc(F)nc21", "read by": "nucleotide incorporation / radiometric", "mutations": "RT-Y188L", "value": "1–10"}
{"compound": "CCN1c2ncc(CCOc3ccc(-c4ccc(C(=O)O)s4)cc3)cc2C(=O)N(C)c2cccnc21", "read by": "nucleotide incorporation / radiometric", "strain": "IIIB", "mutations": "RT-K103N Y181C", "value": ">1"}
{"compound": "CCN1c2ncc(CCOc3ccc(CC(=O)O)c4c3CCCC4)cc2C(=O)N(C)c2ccc(F)nc21", "read by": "nucleotide incorporation / radiometric", "mutations": "RT-Y188L", "value": ">10"}
{"compound": "CCN1c2ncc(CCOc3ccc(N(C)c4ccc(C(=O)O)cc4)cc3C)cc2C(=O)N(C)c2cccnc21", "read by": "nucleotide incorporation / radiometric", "strain": "IIIB", "mutations": "RT-K103N Y181C", "value": ">1"}
{"compound": "CCN1c2ncc(CCOc3ccc4cc(C(=O)NN)ccc4c3)cc2C(=O)N(C)c2cccnc21", "read by": "nucleotide incorporation / radiometric", "mutations": "RT-V106A", "value": "1"}
{"compound": "CCCCNC(=O)c1ccc(NC(=O)CSc2nnc(Br)n2-c2ccc(CC)c3ccccc23)c(Cl)c1", "read by": "nucleotide incorporation / radiometric", "mutations": "RT-Y188L", "value": ">1"}
{"compound": "CCN1c2ncc(CCOc3ccc(NC(=O)C4CC4C(=O)O)cc3C)cc2C(=O)N(C)c2cccnc21", "read by": "nucleotide incorporation / radiometric", "strain": "IIIB", "mutations": "RT-K103N Y181C", "value": ">2"}
{"compound": "CCc1ccc(-n2c(C)nnc2SCC(=O)Nc2ccc(S(N)(=O)=O)cc2Cl)c2c1CCCC2", "read by": "nucleotide incorporation / radiometric", "mutations": "RT-Y188L", "value": ">2"}
{"compound": "CCN1c2ncc(CCOc3ccc(C(=O)O)c4ccccc34)cc2C(=O)Nc2c(C)ccnc21", "read by": "nucleotide incorporation / radiometric", "mutations": "RT-V106A", "value": "1–10"}
{"compound": "CCc1ccc(-n2c(SCC(=O)Nc3ccc(C(=O)O)cc3C)nnc2C(F)F)c2ccccc12", "read by": "nucleotide incorporation / radiometric", "mutations": "RT-Y188L", "value": ">2"}
{"compound": "CCN1c2ncc(CCOc3ccc(Nc4ccc(C(=O)O)cc4)cc3C)cc2C(=O)N(C)c2cccnc21", "read by": "nucleotide incorporation / radiometric", "strain": "IIIB", "mutations": "RT-K103N Y181C", "value": "1"}

Repeating the final 2 entries:

compound	read by	strain	mutations	value
CCc1ccc(-n2c(SCC(=O)Nc3ccc(C(=O)O)cc3C)nnc2C(F)F)c2ccccc12	nucleotide incorporation / radiometric	-	RT-Y188L	>2
CCN1c2ncc(CCOc3ccc(Nc4ccc(C(=O)O)cc4)cc3C)cc2C(=O)N(C)c2cccnc21	nucleotide incorporation / radiometric	IIIB	RT-K103N Y181C	1

Fold resistance has wild type as its base. Conditions beyond the fields shown may differ between rows. An empty or dashed field is not shown.